In patent publication US20210292392A1 (TSB THERAPEUTICS BEIJING, published 2021):

Key:
[1] = target: recombinant RBD of the spike protein of SARS-CoV (SARS-CoV, UniProt P59594 306-527); assay: SPR, RBD on CM5 chip
[2] = target: spike protein of live SARS-CoV-2 (SARS-CoV-2, UniProt P0DTC2 14-1273); assay: cell-based or functional assay
[3] = target: recombinant RBD of the spike protein of SARS-CoV-2 (residues Arg319-Phe541) (SARS-CoV-2, UniProt P0DTC2 319-541); assay: SPR, RBD on CM5 chip

Binder | binding result [1] | Live virus IC50 [2] [µg/mL] | Live virus IC80 [2] [µg/mL] | Kd [3] [nM]
P2A-1B3 (antibody, V domains shown, human IgG1, kappa) VH: EVQLVESGGGLVQPGGSLRLSCVASGFSFNRYSMNWLRQTPRKGLEWLSYISASGNTIYYADSVRGRFTTSRDNAKNTLYLQMNSLRDDDTAVYFCARPAMVREGTYNWFDPWGQGTLVTVSS VL: EIVLTQSPGTLSLSPGERATLSCRASQSVSNDYLAWYQQKPGQAPRLLIYYASSRATGIPDRFSGSGSGTDFTLTISRLEPGDSAVYYCQQYGDSPPITFGQGTRLEIKR | no binding (tested: not printed) | – | – | –
P2A-1A10 (antibody, V domains shown, human IgG1, kappa) VH: not shown VL: DIVMTQTPLSLPVTPGEPASISCRSSQSLLDSDDGNTYLDWYLQKPGQSPQLLIYTLSYRASGVPDRFSGSGSGTDFTLKISRVEAEDVGVYYCMQRIEFPLTFGGGTKVEIKR | no binding (tested: not printed) | – | – | –
P5A-2G7 (antibody, human IgG1, lambda, V domains shown) VH: QVQLQESGPGLVKPSETLSLTCTVSGDSVSSGSYYWSWIRQPPGKGLEWIGYIYYSGSTNYNPSLKSRVTISVDTSKNQFSLKLSSVTAADTAVYYCARERCYYGSGRAPRCVWFDPWGQGTLVTVSS VL: QSALTQPASVSGSPGQSITISCTGTSSDVGGYNYVSWYQQHPGKAPKLMIYDVSNRPSGVSNRFSGSKSGNTASLTISGLQAEDEADYYCSSYTSSSTLVVFGGGTKLTVLG | – | 0.181 | 0.836 | –
P2B-2G4 (antibody, V domains shown, human IgG1, lambda) VH: QVQLVESGGGVVQPGRSLRLSCAASGFTFSSYGMHWVRQAPGKGLEWVAVIWYDGSNKYYADSVKGRFTISRDNSKNTLYLQMNSLRAEDTAVYYCARGAAMVWLDYWGQGTLVTVSS VL: QSALTQPRSVSGSPGQSVTISCTGTSSDVGGYNYVSWYQQHPGKAPKLMIYDVSKRPSGVPDRFSGSKSGNTASLTISGLQAEDEADYYCCSYAGSYTFVVFGGGTKLTVLG | no binding (tested: not printed) | – | – | –
P5A-2G9 (antibody, human IgG1, lambda, V domains shown) VH: QVQLVESGGGVVQPGRSLRLSCAASGFTFSSYGMHWVRQAPGKGLEWVAVIWYDGSNKYYADSVKGRFTISRDNSKNTLYLQMNSLRAEDTAVYYCARWFHTGGYFDYWGQGTLVTVSS VL: QPVLTQPPSSSASPGESARLTCTLPSDINVSSYNIYWYQQKPGSPPRYLLYYYSDSDKGQGSGVPSRFSGSKDASANTGILLISGLQSEDEADYYCMIWPSNALYVFGTGTKVTVLG | – | 0.0113 | 0.119 | –
P2A-1A8 (antibody, V domains shown, human IgG1, lambda) VH: EVQLVESGGDLVQPGRSLRLSCAASGFAFDDYAMHWVRQAPGKGLEWVSGSTWNSGTIAYADSVKGRFTISRDNAKKSLYLQMNSLRTEDTALYYCAKLGGYSDYDYPRPGDHYYGLDVWGQGTTVTVSS VL: QSALTQPASVSGSPGQSITISCTGTSSDVGSYNLVSWYQQHPGKVPKLLIYDVNKRPSGISNRFSGSKSGNTASLTISGLQAEDEADYYCRSYTDSNTYVFGTGTKVTVLG | no binding (tested: not printed) | – | – | 8.91
P5A-1D2 (antibody, human IgG1, lambda, V domains shown) VH: EVQLVESGGGLIQPGGSLRLSCAASGFIVSSNYMSWVRQAPGKGLEWVSIIYSGGSTYYADSVKGRFTISRDNSNNTLYLQMNSLRAEDTAVYYCARALQVGATSDYFDYWGQGTLVTVSS VL: QSVLTQPPSVSGAPGQRVTISCTGSSSNIGAGYDVHWYQQLPGTAPKLLIYGNSNRPSGVPDRFSGSKSGTSASLAITGLQAEDETDYYCQSCDSSLSVVVFGGGTKLTVLG | – | 0.0273 | 0.432 | –
P2A-1A9 (antibody, V domains shown, human IgG1, lambda) VH: EVQLVESGGGLVQPGRSLRLSCAASGFTFDDYAMHWVRQVPGKGLEWVSGISWNGGIIGYADSVKGRFTISRDNAKTSLYLQMNSLRAEDTALYYCAKVAGRGDYDYYYGMDVWGQGTTVTVSS VL: QSVLTQPPSVSGAPGQRVTISCTGSSSNIGAGYDVHWYQQLPGTAPKLLIYGNNNRPSGVPDRFSGSKSGTSASLAITGLQAEDEADYYCQSYDSSLSGSVFGGGTKLTVLG | no binding (tested: not printed) | – | – | –
P2B-2G11 (antibody, V domains shown, human IgG1, lambda) VH: EVQLVESGGGLVQPGRSLRLSCAASGFTFDDYAMHWVRQAPGKGLEWVSGISWNGGIIGYADSVKGRFTISRDNAKTSLYLQMNSLKPEDTALYYCAKVAGRGDYDYYYGMDVWGQGTTVTVSS VL: QSVLTQPPSVSGAPGQRVTISCTGSSSNIGAGYDVHWYQQLPGTAPKLLIYGNNNRPSGVPDRFSGSKSGTSASLAITGLQAEDEADYYCQSYDSSLSGSVFGGGTKLTVLG | no binding (tested: not printed) | – | – | –
